Measured data: PubChem BioAssay AID1259414 (Drosophila RNAi Screening Center, 2018)
The deposit covers about 24,000 reagents; this is a random part of those with a known target gene and a result. In the full data, about 1,210 (5%) got an active call. 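Inactive calls also include excluded dsRNAs with several or no targets, genes unexpressed in JW18, and well A1, regardless of score.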 Names joined by + are all predicted targets of the reagent.

Purpose: 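Host factors increasing or decreasing Wolbachia levels in cultured fly cells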 (primary screen)
System: Drosophila JW18 cells infected with Wolbachia
Knock-down reagent: long dsRNA against Drosophila genes, 0.25 µg dsRNA per well of a 384-well plate
Timing: 5 days
Treatment: cells persistently infected with Wolbachia before knock-down; no added drug
Detection: 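Automated imaging of bacterial rRNA staining divided by host cell count, reported as plate-normalised robust z-score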
Direction: Wolbachia per cell robust z: higher = more Wolbachia per host cell than the plate typical
Call rule: 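Active if absolute robust z reaches 1.5 in two or more of three replicates, leaving out multi- or no-target dsRNAs, genes unexpressed in JW18 and A1 wells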

target gene	amplicon	Wolbachia per cell robust z, rep 1	Wolbachia per cell robust z, rep 2	Wolbachia per cell robust z, rep 3	call
CG17030	DRSC08503	0.291	-0.0584	-4.77	inactive
CG10298	DRSC12522	-4.46	-0.0894	-0.0157	inactive
CG10298	DRSC25489	-1.62	-6.41	-0.287	active
CG14646	DRSC12232	0.0623	0.805	-0.201	inactive
CG14646	DRSC21316	-0.243	0.96	0.811	inactive
slif	DRSC11635	-2.38	0.76	-0.856	inactive
slif	DRSC27438	0.852	0.308	0.937	inactive
ptc	DRSC05117	-1.87	-0.0464	2.12	inactive
ptc	DRSC07669	0.326	0.805	-1.31	inactive
CG6839	DRSC10723	0.73	0.193	0.535	inactive
CG8100	DRSC10961	0.578	-7.61	-0.753	inactive
Obp85a	DRSC14362	0.0537	-1.26	-0.301	inactive
CG42676	DRSC08392	-0.61	-0.982	-0.702	inactive
CG42676	DRSC23487	-0.377	-0.229	1.04	inactive
CG12773	DRSC18580	-0.74	-9.51	0.609	inactive
CG12773	DRSC24900	0.784	-0.083	1.25	inactive
CG1172	DRSC12182	-2	0.395	0.346	inactive
CG1172	DRSC21954	-1.55	-0.565	-0.121	inactive
CG1172	DRSC23672	1.31	-0.0648	0.0391	inactive
hep	DRSC19839	0.0144	0.328	1.31	inactive
hep	DRSC20337	-0.878	0.271	0.629	inactive
hep	DRSC26331	0.435	-0.881	-0.0984	inactive
alpha-Cat	DRSC11917	-2.01	-0.384	-0.0603	inactive
upd2	DRSC19969	1.25	0.572	0.472	inactive
upd2	DRSC24190	0.309	3.7	1.3	inactive
Six4	DRSC11881	0.967	0.92	0.711	inactive
Six4	DRSC29889	-0.0283	0.488	0.736	inactive
comt	DRSC20319	-0.317	1.11	-0.755	inactive
comt	DRSC25218	0.222	0.175	-1.27	inactive
CG12992	DRSC19512	0.0949	-0.0118	0.0893	inactive
CG31809 + CG31810	DRSC25411	-1.53	-0.0467	0.0829	inactive
CG42823	DRSC37837	-0.55	-1.41	-1.15	inactive
Ir75a	DRSC10188	-0.708	-0.565	0.568	inactive
Hrb87F	DRSC16708	0.633	1.28	0.582	inactive
Hrb87F	DRSC29600	0.296	0.571	-3.37	inactive

6 entries from above, reformatted:
| target gene | amplicon | Wolbachia per cell robust z, rep 1 | Wolbachia per cell robust z, rep 2 | Wolbachia per cell robust z, rep 3 | call |
| --- | --- | --- | --- | --- | --- |
| CG17030 | DRSC08503 | 0.291 | -0.0584 | -4.77 | inactive |
| CG10298 | DRSC12522 | -4.46 | -0.0894 | -0.0157 | inactive |
| CG10298 | DRSC25489 | -1.62 | -6.41 | -0.287 | active |
| CG14646 | DRSC12232 | 0.0623 | 0.805 | -0.201 | inactive |
| CG14646 | DRSC21316 | -0.243 | 0.96 | 0.811 | inactive |
| slif | DRSC11635 | -2.38 | 0.76 | -0.856 | inactive |

Next records follow.
target gene	amplicon	Wolbachia per cell robust z, rep 1	Wolbachia per cell robust z, rep 2	Wolbachia per cell robust z, rep 3	call
CR46300	DRSC12466	-1.28	-2.32	-0.66	inactive
CR46300	DRSC37917	-6.09	-0.471	0.128	inactive
Zdhhc8	DRSC18044	0.0431	0.736	-0.705	inactive
Zdhhc8	DRSC18122	-0.892	0.726	0.163	inactive
GstD10	DRSC15346	0.587	0.478	0.466	inactive
GstD10	DRSC25140	0.543	-2.16	-2.06	active
CG17648	DRSC00508	-5.49	-0.588	0.101	inactive
AOX2	DRSC15338	0.0944	0.449	0.226	inactive
CG15471	DRSC18054	-0.196	0.103	1.22	inactive
CG15471	DRSC26243	2.23	0.548	-0.0986	inactive
Pxn	DRSC08685	1.45	-1.72	0.905	inactive
Pxn	DRSC27895	-1.88	-0.161	0.902	inactive
CG4393	DRSC15573	-0.201	0.114	-4.43	inactive
Obp56g	DRSC06432	0.948	-2.04	0.858	inactive
SmD3	DRSC07553	1.16	1.34	0.918	inactive
SmD3	DRSC29356	1.89	1.47	1.74	active
CG32857 + CG33502 + CG32500	DRSC20817	0.532	-0.356	-9.16	inactive
SerT	DRSC04655	-1.92	-1.03	-0.691	inactive
SerT	DRSC28934	0.972	-0.332	0.109	inactive
Stoml2	DRSC04326	0.779	-0.427	-0.856	inactive
CR18166	DRSC17260	-0.119	-1.49	-0.666	inactive
CR18166	DRSC18147	-0.284	-1.43	0.578	inactive
CR18166	DRSC27717	-1.48	0.359	0.552	inactive
CG33333	DRSC13233	-1.7	0.346	-0.814	inactive
BBIP1 + CG8135	DRSC12739	0.534	1.11	0.304	inactive
Nepl3	DRSC02681	0.593	0.482	-0.572	inactive
Ufd1	DRSC10607	0.967	1.48	-7.78	inactive
Smn	DRSC10223	0.374	-0.326	-1.45	inactive
DIP-zeta	DRSC02203	0.93	-1.74	0.431	inactive
DIP-zeta	DRSC02204	0.409	2.13	0.334	inactive
DIP-zeta	DRSC02205	0.639	1.59	0.707	inactive
Tsp42Er	DRSC06183	0.0736	-2.16	-0.845	inactive
Mst84Dd	DRSC12600	0.4	0.564	-0.867	inactive
Mst84Dd	DRSC25596	-5.36	-13.4	-1.08	inactive
Osi2	DRSC12174	-0.977	-0.0473	-0.185	inactive
Osi2	DRSC28374	0.354	-0.621	-0.382	inactive
sli	DRSC07684	0.683	0.798	0.971	inactive
sli	DRSC22936	-0.581	0.0991	-0.713	inactive
sli	DRSC29578	0.586	0.497	0.17	inactive
Ilp3	DRSC10168	0.36	-0.801	0.38	inactive
pix	DRSC10533	0.843	-0.574	1.9	inactive
Dci	DRSC08360	0.69	-0.763	-0.529	inactive
Dci	DRSC28929	1.09	0.416	0.258	inactive
Vha44	DRSC07572	-2.18	0.942	-0.965	inactive
Vha44	DRSC07573	-1.14	-4.41	0.961	inactive
Vha44	DRSC24506	-1.27	-0.557	-0.505	inactive
CG34176	DRSC00435	1.75	2.26	-0.274	inactive
CG34176	DRSC41292	-0.0911	0.767	0.233	inactive
Pms2	DRSC07511	0.278	0.986	-0.202	inactive
Sfp77F	DRSC40642	-2.4	-1.45	0.206	inactive
Akr1B	DRSC10581	-0.131	-7.67	0.244	inactive
resilin	DRSC05627	0.00248	0.0247	-0.184	inactive
resilin	DRSC06595	1.06	1.74	1.35	inactive
